Results deposited as PubChem BioAssay AID1259414 (Drosophila RNAi Screening Center, 2018)

Purpose: 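Fly genes that alter Wolbachia amount inside host cells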 (primary screen)
System: Drosophila JW18 cells infected with Wolbachia
Knock-down reagent: long dsRNA against Drosophila genes, 0.25 µg dsRNA per well of a 384-well plate
Duration: 5 days
Conditions: cells persistently infected with Wolbachia before knock-down; no added drug
Detection: 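Automated imaging of bacterial rRNA staining divided by host cell count, reported as plate-normalised robust z-score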
Scale: Wolbachia per cell robust z: higher = more Wolbachia per host cell than the plate typical
Rule for the call: 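Active if absolute robust z reaches 1.5 in two or more of three replicates, leaving out multi- or no-target dsRNAs, genes unexpressed in JW18 and A1 wells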
The deposit covers about 24,000 reagents; this is an unselected part of those that have a named target and a result. Of all reagents, about 1,210 (5%) were called active. 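Inactive calls also include excluded dsRNAs with several or no targets, genes unexpressed in JW18, and well A1, regardless of score.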 Names joined by + are all predicted targets of the reagent. Reagent sequences are not shown.

The first 3 entries as a preview:
| target gene | DRSC id | Wolbachia per cell robust z, rep 1 | Wolbachia per cell robust z, rep 2 | Wolbachia per cell robust z, rep 3 | Outcome |
| --- | --- | --- | --- | --- | --- |
| CG30423 (GeneID 246605) | DRSC04013 | 0.123 | -0.904 | 0.427 | inactive |
| mRpL14 (GeneID 31222) | DRSC18597 | -0.707 | 0.357 | -3.26 | inactive |
| mRpL14 (GeneID 31222) | DRSC24034 | -1.13 | -0.949 | -0.275 | inactive |

The list itself, from the first entry:
| target gene | DRSC id | Wolbachia per cell robust z, rep 1 | Wolbachia per cell robust z, rep 2 | Wolbachia per cell robust z, rep 3 | Outcome |
| --- | --- | --- | --- | --- | --- |
| CG30423 (GeneID 246605) | DRSC04013 | 0.123 | -0.904 | 0.427 | inactive |
| mRpL14 (GeneID 31222) | DRSC18597 | -0.707 | 0.357 | -3.26 | inactive |
| mRpL14 (GeneID 31222) | DRSC24034 | -1.13 | -0.949 | -0.275 | inactive |
| CR33929 (GeneID 10178780) | DRSC37858 | 0.829 | 0.538 | 1.22 | inactive |
| Arp5 (GeneID 42173) | DRSC16350 | -0.345 | -0.832 | -0.433 | inactive |
| Arp5 (GeneID 42173) | DRSC28688 | -1.04 | -0.719 | 0.201 | inactive |
| Orai (GeneID 37040) | DRSC22061 | -0.304 | 0.763 | 0.497 | inactive |
| CG13171 (GeneID 36323) | DRSC06299 | -1.03 | -0.728 | -0.746 | inactive |
| CG42749 (GeneID 31438) | DRSC18091 | 0.957 | -1.19 | -3.45 | inactive |
| CG42749 (GeneID 31438) | DRSC18092 | -2.48 | 1.09 | -0.0298 | inactive |
| CG42749 (GeneID 31438) | DRSC29102 | -0.137 | 0.688 | 1.43 | inactive |
| CG32280 (GeneID 317952) | DRSC08024 | 0.989 | 0.443 | -0.143 | inactive |
| Gr39b (GeneID 117347) | DRSC01848 | 0.733 | -0.305 | -0.87 | inactive |
| Gr39b (GeneID 117347) | DRSC26464 | 0.319 | -1.26 | -1.21 | inactive |
| CG7519 (GeneID 40377) | DRSC11834 | -0.00933 | -0.0162 | -1.38 | inactive |
| ND-20 (GeneID 32565) | DRSC20164 | -4.68 | -10.1 | -0.318 | active |
| eIF2Bbeta (GeneID 31256) | DRSC18465 | 0.156 | -6.25 | -0.166 | inactive |
| eIF2Bbeta (GeneID 31256) | DRSC28495 | -0.0251 | 0.663 | 0.758 | inactive |
| CG4066 (GeneID 41493) | DRSC15541 | -0.722 | 0.336 | -7.21 | inactive |
| CG4066 (GeneID 41493) | DRSC29744 | -0.859 | 0.605 | -4.42 | inactive |
| RunxB (GeneID 33051) | DRSC20395 | 0.684 | -9.28 | -1.21 | inactive |
| RunxB (GeneID 33051) | DRSC20525 | 0.593 | 0.21 | -1 | inactive |
| RunxB (GeneID 33051) | DRSC20526 | -0.251 | -0.748 | -1.36 | inactive |
| RunxB (GeneID 33051) | DRSC23150 | 0.52 | -5.43 | -5.38 | inactive |
| RunxB (GeneID 33051) | DRSC28799 | -1.21 | -0.121 | -0.448 | inactive |
| CG13670 (GeneID 38938) | DRSC10029 | 0.746 | 0.0811 | -0.301 | inactive |
| CG13670 (GeneID 38938) | DRSC26092 | -0.289 | -0.459 | -1.33 | inactive |
| ifc (GeneID 33836) | DRSC03549 | 0.542 | 0.203 | 0.583 | inactive |
| NKCC (GeneID 40663) | DRSC12140 | 0.16 | -0.602 | -0.395 | inactive |
| NKCC (GeneID 40663) | DRSC12311 | -1.17 | 0.61 | 1.08 | inactive |
| nub (GeneID 34669) | DRSC02498 | 0.552 | -1.95 | -0.383 | inactive |
| nub (GeneID 34669) | DRSC03583 | 1.7 | 1.25 | -0.973 | inactive |
| nub (GeneID 34669) | DRSC23066 | -1.78 | -2.27 | -0.389 | inactive |
| nub (GeneID 34669) | DRSC25610 | -0.169 | 0.357 | 0.139 | inactive |
| nub (GeneID 34669) | DRSC27113 | -0.304 | -0.0206 | -5.47 | inactive |
| nub (GeneID 34669) | DRSC28839 | 0.0638 | 0.278 | 1.73 | inactive |
| nub (GeneID 34669) | DRSC39102 | 1.16 | 0.884 | -3.55 | inactive |
| Sesn (GeneID 37755) | DRSC04101 | 0.827 | -2 | -0.58 | inactive |
| Sesn (GeneID 37755) | DRSC04102 | -0.136 | 0.189 | -6.05 | inactive |
| Sesn (GeneID 37755) | DRSC04103 | -1.37 | -3.08 | 0.777 | inactive |
| CG32243 (GeneID 317935) | DRSC08105 | -8.83 | 0.519 | -2.39 | active |
| psh (GeneID 32832) | DRSC19990 | 0.257 | 0.566 | -0.627 | inactive |
| psh (GeneID 32832) | DRSC28534 | -0.342 | -1.06 | -1.8 | inactive |
| Nhe1 (GeneID 33167) | DRSC00762 | 1.26 | 1.28 | -0.611 | inactive |
| lva (GeneID 31350) | DRSC18403 | -0.264 | -0.626 | 0.513 | inactive |
| lva (GeneID 31350) | DRSC27594 | 1.59 | -0.747 | 0.83 | inactive |
| CG34198 (GeneID 5740481) | DRSC38708 | 0.0669 | -1.65 | 1.65 | inactive |
| Ugt37B1 (GeneID 53584) | DRSC03225 | -1.74 | -1.66 | 0.267 | inactive |
| CG3088 (GeneID 39115) | DRSC10352 | -0.952 | 0.988 | -0.315 | inactive |
| Atg14 (GeneID 43438) | DRSC14421 | 0.771 | -0.774 | 0.161 | inactive |
| Atg14 (GeneID 43438) | DRSC27166 | -0.761 | -0.369 | 0.867 | inactive |
| CG14731 (GeneID 41442) | DRSC14952 | 0.21 | 0.966 | -4.88 | inactive |
| CG30416 (GeneID 246603) | DRSC04565 | -0.00675 | -4.24 | -0.573 | inactive |
| CG6006 (GeneID 41962) | DRSC13137 | -0.148 | -0.728 | -2.28 | inactive |
| CG6006 (GeneID 41962) | DRSC15946 | 0.693 | 1.26 | 0.912 | inactive |
| CG34330 (GeneID 2768869) | DRSC20043 | 0.487 | 0.56 | 1.03 | inactive |
| CG34330 (GeneID 2768869) | DRSC29637 | -1 | -0.594 | -0.095 | inactive |
| CR33255 + CR42838 + hpRNA:CR32205 | DRSC09611 | 0.36 | 0.442 | 0.0424 | inactive |
| CG7714 (GeneID 42250) | DRSC16300 | -0.441 | 0.3 | -1.05 | inactive |
| CG7714 (GeneID 42250) | DRSC24753 | 0.878 | 0.0129 | 0.334 | inactive |
| CG14034 (GeneID 33751) | DRSC02359 | 0.0512 | 1.03 | -1.77 | inactive |
| Atf6 (GeneID 35480) | DRSC04743 | 1.67 | 0.673 | 0.875 | inactive |
| Atf6 (GeneID 35480) | DRSC04889 | 0.38 | 0.482 | -0.36 | inactive |
| Atf6 (GeneID 35480) | DRSC28936 | -0.176 | -1.04 | -0.91 | inactive |
| Sfp24Ba (GeneID 8673984) | DRSC40530 | -1.89 | -0.497 | 0.279 | inactive |
| CCAP-R (GeneID 2768688) | DRSC14891 | -0.0393 | 0.293 | 0.437 | inactive |
| CCAP-R (GeneID 2768688) | DRSC15967 | -3.69 | 0.391 | 1.88 | inactive |
| CCAP-R (GeneID 2768688) | DRSC29494 | 0.419 | -0.025 | 0.049 | inactive |
